Molecules are shown by their SMILES. Several values for one entry are separate records, joined by “and”; a condition that tells them apart may be missing. Equal entries are not always repeated.

For series [1], the system named is T. brucei rhodesiense, strain STIB900 trypomastigote forms. The series can be described thus: In vitro growth inhibition assay of Trypanosoma brucei rhodesiense STIB900 (Alamar blue). The format is cell-based. As to conditions: L6 vs T. b. rhodesiense STIB900. As to the method:
Trypanocidal activity was determined in vitro against axenically grown bloodstream-forms of T. b. rhodesiense STIB900 as described in Refs. [76, 77] and detailed in the Supplementary Materials. Parasite proliferation was assessed via fluorescence of the redox-sensitive dye resazurin (Alamar blue). The drug melarsoprol was used as the positive control. […]
1.2 In vitro growth inhibition assay of Trypanosoma brucei rhodesiense
Trypanosoma brucei rhodesiense, STIB 900 strain, and the standard drug, melarsoprol, were used for the assay. Minimum Essential Medium (50 μL) supplemented with 25 mM HEPES, 1g/L additional glucose, 1% MEM non-essential amino acids (100x), 0.2 mM 2-mercaptoethanol, 1 mM Na-pyruvate and 15% heat-inactivated horse serum was added to each well of a 96-well microtiter plate. Serial drug dilutions of 11 three-fold dilution steps covering a range from 100 to 0.002 μg/mL were prepared. Then […]
mL double-distilled water) was then added to each well and incubation continued for a further 2–4 h.
Then, the plates were read with a Spectramax Gemini XS microplate fluorometer (Molecular Devices Cooperation, Sunnyvale, CA, USA) using an excitation wavelength of 536 nm and an emission wavelength of 588 nm. The IC50 values were calculated from the sigmoidal inhibition curves using the microplate reader software Softmax Pro (Molecular Devices Cooperation, Sunnyvale, CA, USA).
Melarsoprol was used as control. […]

The subject of series [2] is P. falciparum, strain NF54, erythrocytic stages. The series can be described thus: In vitro growth inhibition assay of Plasmodium falciparum NF54 ([3H]-hypoxanthine incorporation). It counts as cell-based. Particulars: L6 vs P. falciparum NF54. The procedure:
Antimalarial activity was determined in vitro against the erythrocytic stages of P. falciparum using the drug-sensitive strain NF54. Parasite proliferation was assessed by incorporation of [^3H]-hypoxanthine using a modified version of [75]; for details, please refer to the Supplementary Materials. The positive control was chloroquine.
1. Experimental of biological testing
1.1 In vitro growth inhibition assay of Plasmodium falciparum NF54
Plasmodium falciparum, strain NF54, erythrocytic stages, and the standard drug, chloroquine, were used for the assay. The parasite cultures incubated in RPMI 1640 medium with 5% AlbuMAXTM (without hypoxanthine) were exposed to serial drug dilutions in microtiter plates. After 48 h of incubation at 37 °C in a reduced oxygen atmosphere, 0.5 μCi [3H]-hypoxanthine was added to each well of the plate. Cultures were incubated for a further 24 h before they were harvested onto glass-fiber filters and washed with distilled water. The radioactivity was counted using a BetaplateTM liquid scintillation […]
counter (Wallac, Zurich). […]
concentration and expressed as percentage of the untreated controls. IC50 values were calculated from the sigmoidal inhibition curves using Microsoft Excel. Chloroquine was used as control. […]

For `COC(=O)CC1(O)C=CC(=O)C(Cl)=C1` (stereo not shown) [Compound 4c, Methyl 2-(3-chloro-1-hydroxy-4-oxocyclohexa-2,5-dien-1-yl)acetate], the “SI (IC50 in L6 cells/IC50 in T. b. rhodesiense)” value in series [1] amounted to 9.36. Further, the “SI (IC50 in L6 cells/IC50 in P. falciparum)” value in series [2] is recorded as 0.53.

As for `O=C1C=CC(=O)c2cc(F)ccc21` [Compound 5d, 6-Fluoro-1,4-dihydronaphthalene-1,4-dione], the “SI (IC50 in L6 cells/IC50 in T. b. rhodesiense)” value in series [1] was 23.33. Besides, the “SI (IC50 in L6 cells/IC50 in P. falciparum)” value in series [2] turned out to be 3.21.

`COC(=O)CC1(O)C=C(Cl)C(=O)C(Cl)=C1` [Compound 4e, Methyl 2-(3,5-dichloro-1-hydroxy-4-oxocyclohexa-2,5-dien-1-yl)acetate]: in series [1], the “SI (IC50 in L6 cells/IC50 in T. b. rhodesiense)” value is reported as 11.6. For the same molecule, the “SI (IC50 in L6 cells/IC50 in P. falciparum)” value in series [2] is 0.47.

Turning to `COC(=O)/C=C/C1(O)C=CC(=O)C=C1` [Compound 4i, Methyl (2E)-3-(1-hydroxy-4-oxocyclohexa-2,5-dien-1-yl)prop-2-enoate], in series [1], the “SI (IC50 in L6 cells/IC50 in T. b. rhodesiense)” value was determined as 5.27. Moreover, the “SI (IC50 in L6 cells/IC50 in P. falciparum)” value in series [2] turned out to be 0.87.

Consider `COC(=O)CC1(O)C=C(Br)C(=O)C(Br)=C1` [Compound 4f, Methyl 2-(3,5-dibromo-1-hydroxy-4-oxocyclohexa-2,5-dien-1-yl)acetate], for which the “SI (IC50 in L6 cells/IC50 in T. b. rhodesiense)” value in series [1] is recorded as 8.29. Besides, the “SI (IC50 in L6 cells/IC50 in P. falciparum)” value in series [2] came to 0.51.

For the molecule `O=C1C=CC(=O)c2cc(F)c(F)cc21` [Compound 5e, 6,7-Difluoro-1,4-dihydronaphthalene-1,4-dione], the “SI (IC50 in L6 cells/IC50 in T. b. rhodesiense)” value in series [1] stood at 28.92. The “SI (IC50 in L6 cells/IC50 in P. falciparum)” value in series [2] is 6.97.

Turning to `COC(=O)CC1(O)C=CC(=O)C=C1` [Compound 4a, Methyl 2-(1-hydroxy-4-oxocyclohexa-2,5-dien-1-yl)acetate], in series [1], the “SI (IC50 in L6 cells/IC50 in T. b. rhodesiense)” value turned out to be 0.66. Also, in series [2], the “SI (IC50 in L6 cells/IC50 in P. falciparum)” value is on record as 0.40.

In the case of `COC(=O)CC1(O)C=CC(=O)C(Br)=C1` (stereo not shown) [Compound 4d, Methyl 2-(3-bromo-1-hydroxy-4-oxocyclohexa-2,5-dien-1-yl)acetate], in series [1], the “SI (IC50 in L6 cells/IC50 in T. b. rhodesiense)” value turned out to be 5.09. Further, the “SI (IC50 in L6 cells/IC50 in P. falciparum)” value in series [2] came to 0.71.

For `O=C1C=CC2(C=C1)CCC(=O)O2` [Compound 4h, 1-Oxaspiro [4.5]deca-6,9-diene-2,8-dione], the “SI (IC50 in L6 cells/IC50 in T. b. rhodesiense)” value in series [1] was found to be 0.09. The “SI (IC50 in L6 cells/IC50 in P. falciparum)” value in series [2] came to 0.15.

Consider `COC(=O)CCC1(O)C=CC(=O)C=C1` [Compound 4g, Methyl 3-(1-hydroxy-4-oxocyclohexa-2,5-dien-1-yl)propanoate], for which, in series [1], the “SI (IC50 in L6 cells/IC50 in T. b. rhodesiense)” value is reported as >20.5. Moreover, the “SI (IC50 in L6 cells/IC50 in P. falciparum)” value in series [2] was > 12 and >12.3.

Turning to `COC(=O)CC1(O)C=CC(=O)C(F)=C1` (stereo not shown) [Compound 4b, Methyl 2-(3-fluoro-1-hydroxy-4-oxocyclohexa-2,5-dien-1-yl)acetate], the “SI (IC50 in L6 cells/IC50 in T. b. rhodesiense)” value in series [1] is on record as 8.42. Also, in series [2], the “SI (IC50 in L6 cells/IC50 in P. falciparum)” value stood at 1.02.
